Taken from: PubChem BioAssay AID504761 (Drosophila RNAi Screening Center, 2011)
The deposit covers about 22,000 reagents; this is a random part of those that have a named target and a result. Of all reagents, 116 (0.52%) were called active. 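Calls depend on retest data that are not deposited; infection was ranked per plate without normalising between plates; the unit of the infection score is not given.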 Raw values vary from plate to plate and are shown uncorrected. A number with no mark means an inactive call. Names joined by + are all predicted targets of the reagent. Reagent sequences are not shown. The record does not give: the amount of reagent, the time to read-out.

Aim: 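Insect host genes that dengue virus relies on to spread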 (primary screen)
Cell system: D.Mel-2 cells from Drosophila
Reagent: long dsRNA against Drosophila genes
Treatment: infection with dengue virus type 2; dose and infection time not stated
Detection: 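Per well on two replicate plates, imaging gave the percent of cells positive for viral envelope protein, ranked by infection, and a nuclear count of cells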
Scale: infection score: higher = more virus-infected cells; cell count: higher = more cells in the well
Hit rule: 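Low infection ranks in the two replicates (chance level up to 0.065) followed by a retest with a 1.5-fold or larger significant decrease, p below 0.05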
Meaning of the calls: active = confirmed: knock-down lowers infection; inactive = not picked or not confirmed

target gene | amplicon | infection score, replicate 1 | infection score, replicate 2 | cell count, replicate 1 | cell count, replicate 2
CG6472 (GeneID 36895) | DRSC06989 | 3.15 | 11.4 | 6731 | 5620
Bacc (GeneID 33462) | DRSC27262 | 3.19 | 13.1 | 6121 | 6280
CG3726 (GeneID 31525) | DRSC23143 | 2.9 | 5.54 | 6587 | 7742
CG3726 (GeneID 31525) | DRSC27453 | 5.74 | 9.62 | 6429 | 5676
CG3625 (GeneID 33198) | DRSC00621 | 2.4 | 3.78 | 6051 | 6567
RpL28 + snoRNA:Me28S-C3351 | DRSC26182 | 8.44 | 8.75 | 3920 | 5336
CG9451 (GeneID 40118) | DRSC11074 | 3.63 | 1.57 | 6355 | 6418
CG9451 (GeneID 40118) | DRSC26098 | 15.9 | 8.25 | 5455 | 5781
Kdm4A (GeneID 35744) | DRSC06586 | 22.5 | 26.8 | 3560 | 5550
Kdm4A (GeneID 35744) | DRSC29611 | 9.92 | 11.6 | 3731 | 4022
Send1 (GeneID 33407) | DRSC00482 | 4.89 | 3.34 | 6754 | 6204
Send1 (GeneID 33407) | DRSC27719 | 21.6 | 5.65 | 5634 | 6639
CG15861 (GeneID 37990) | DRSC04274 | 3.58 | 35.5 | 6648 | 4869
CG15861 (GeneID 37990) | DRSC29309 | – | – | 282 | 334
Rab9 (GeneID 35221) | DRSC03281 | 0.96 | 1.81 | 728 | 6226
GstO2 (GeneID 38974) | DRSC10691 | 15.2 | 17.5 | 4933 | 5248
GstO2 (GeneID 38974) | DRSC29069 | 11.8 | 11.9 | 5508 | 2515
CG18269 (GeneID 33785) | DRSC02660 | 7.01 | 4.84 | 5778 | 5949
CG8993 (GeneID 38301) | DRSC08616 | 1.05 | 3.02 | 6928 | 6585
CG8993 (GeneID 38301) | DRSC27318 | 9 | 3.66 | 6343 | 6304
CG14881 (GeneID 41990) | DRSC15005 | 16.8 | 6.67 | 6431 | 6496
CG14881 (GeneID 41990) | DRSC25898 | 3.79 | 2.08 | 6074 | 6596
mRpL41 (GeneID 36688) | DRSC06257 | 19.9 | 18.3 | 5507 | 4049
mRpL41 (GeneID 36688) | DRSC29395 | 6.89 | 3.91 | 1117 | 1841
futsch (GeneID 5740544) | DRSC17688 | 4.45 | 1.61 | 6465 | 6526
futsch (GeneID 5740544) | DRSC17949 | 0.71 | 0.77 | 6232 | 6584
futsch (GeneID 5740544) | DRSC17952 | 4.92 | 13.6 | 5956 | 6591
futsch (GeneID 5740544) | DRSC18543 | 8.05 | 0.65 | 5538 | 6575
futsch (GeneID 5740544) | DRSC26427 | 4.45 | 3.57 | 5103 | 6380
mip130 (GeneID 31153) | DRSC18575 | 6.97 | 14 | 2957 | 2412
mip130 (GeneID 31153) | DRSC26990 | 9.5 | 7.55 | 5687 | 5692
Dok (GeneID 31667) | DRSC18204 | 1.3 | 6.52 | 6292 | 6563
Dok (GeneID 31667) | DRSC23455 | 7.62 | 1.7 | 6350 | 6194
S2P (GeneID 36262) | DRSC07311 | 8.44 | 8.08 | 6753 | 6720
S2P (GeneID 36262) | DRSC27864 | 3.43 | 2.23 | 5890 | 6635
Fatp3 (GeneID 37887) | DRSC04366 | 1.21 | 3.95 | 6107 | 6298
Fatp3 (GeneID 37887) | DRSC29135 | – | – | 350 | 291
CG7024 (GeneID 31407) | DRSC18414 | 5.67 | 16.6 | 1694 | 3250
CG7024 (GeneID 31407) | DRSC27277 | 25.7 | 2.21 | 5699 | 6302
pn (GeneID 31194) | DRSC18822 | 3.46 | 3.82 | 5888 | 6545
pn (GeneID 31194) | DRSC28649 | 11.6 | 7.79 | 3070 | 2412
Hsc70-4 (GeneID 41840) | DRSC16711 | 4.32 | 15.2 | 2572 | 2990
Hsc70-4 (GeneID 41840) | DRSC29729 | 24.5 | 18.1 | 3973 | 4714
CG14207 (GeneID 32955) | DRSC19562 | 10.6 | 18.6 | 6802 | 6732
CG14207 (GeneID 32955) | DRSC19563 | 5.2 | 1.87 | 4289 | 6535
Hex-C (GeneID 44008) | DRSC07079 | 6.91 | 9.86 | 6653 | 5600
Hex-C (GeneID 44008) | DRSC24095 | 4.02 | 4.46 | 6640 | 6567
hid (GeneID 40009) | DRSC11316 | 7.04 | 5.38 | 6879 | 5518
hid (GeneID 40009) | DRSC25461 | 0.61 | 1.34 | 6345 | 6268
nrm (GeneID 40515) | DRSC11599 | 1.77 | 1.76 | 6117 | 6121
nrm (GeneID 40515) | DRSC11897 | 11.2 | 10.1 | 6958 | 6492
CG13126 (GeneID 34323) | DRSC02222 | 5.33 | 5.66 | 6847 | 6642
CG13126 (GeneID 34323) | DRSC27620 | 21.4 | 3.35 | 6261 | 6662
ClC-c (GeneID 39759) | DRSC10499 | 9.64 | 3.22 | 3038 | 6176
CG9863 (GeneID 37694) | DRSC28491 | 8.28 | 4.63 | 3006 | 994
CG15756 (GeneID 32308) | DRSC19721 | 4.01 | 6.35 | 5979 | 6428
CG15756 (GeneID 32308) | DRSC24288 | 4.01 | 2.45 | 7013 | 6609
Eig71Eh (GeneID 39709) | DRSC11155 | 0.93 | 3.57 | 6208 | 5974
